Test results taken from PMC9540141.

These substances were tested against SARS-CoV-2 RBD-His (SARS-CoV-2) (UniProt P0DTC2) (assay: BLI).

Point of comparison: 4L12 (from UniProt P01857), Kd 1.49 nM. Against it:
- 16L9 (from UniProt P01857) — within 1.5-fold, 1.15 nM
- GW01 (from UniProt P01857) — within 1.5-fold, 1.28 nM
